Data reported in article PMC9017349, “Spiropyrimidinetriones: a Class of DNA Gyrase Inhibitors with Activity against Mycobacterium tuberculosis and without Cross-Resistance to Fluoroquinolones” (Antimicrobial Agents and Chemotherapy, 2022).

Tests used:
M. tuberculosis H37Rv = format: cell-based; details: CARA
M. tuberculosis ΔcydA = format: cell-based
M. tuberculosis Erdman = assay: microbe, parasite or virus in culture; format: cell-based; details: Mycobacterium tuberculosis, 7H9 medium-ADC-glycerol, read-out: MIC against the Erdman strain
[1] = test system: M. tuberculosis Erdman pFCA-LuxAB (Erdman Lux); details: BALB/c mice, 300 mg/kg p.o. daily, 12 days

Question: For `Cc1nnc(-c2noc3c(F)c4c(cc23)CC2(C(=O)NC(=O)NC2=O)[C@H]2[C@H](C)O[C@H](C)CN42)o1` [Compound 22], which “MBC relative to MIC” value (M. tuberculosis H37Rv) is on record?
Answer: The value was 2 fold.

Question: And the “MIC90, ΔcydA” value (M. tuberculosis ΔcydA)?
Answer: The value was 2.0 µM (≈ 0.941 µg/mL).

Question: And the MIC (M. tuberculosis Erdman)?
Answer: Its MIC is 4 µM (≈ 1.88 µg/mL).

Question: And the “decline in lung CFU burdens relative to the untreated controls” value [1]?
Answer: Its value is 0.61 log10.

Question: And the “plasma Cmax over the serum-shifted MIC of M. tuberculosis Erdman” value (300 mg/kg)?
Answer: The value was about 20 fold.

Question: What about the “free AUC/MIC” value (based on the untreated mouse PK) of the same molecule?
Answer: The value was 43.

Values after ≈ are worked out from the molar mass of the structure shown.
